Results of unrelated studies side by side (data: NIAID ChemDB).

Shared fields: growth or infection tests; species: Mycobacterium tuberculosis

Lines come from different laboratories, so protocols vary. Two numbers with a dash give a range or band. Percent inhibition refers to the dose given; in toxicity tests it is the harm to the cells. Blank or dashed fields: not listed here. MIC bound comes from a single tested concentration. A number after MIC or MFC names an inhibition level or a share of isolates.

structure,strain or isolate,changes,read by,measure,dose,result
NC1CCN(c2c(F)cc3c(=O)c(C(=O)O)cn(C4CC4)c3c2Cl)C1,,,,MIC90,,1 µg/mL
O=C1C(=O)N(CCCCCCCN2CCN(c3ccnc4cc(Cl)ccc34)CC2)c2ccc(Cl)cc21,MC2 6230,,,MIC99,,167 µM
C[C@H]1C2C3CCC4[C@@]5(C)CC[C@H](O)C(C)(C)C5CC[C@@]4(C)[C@]3(C)C[C@H](O)[C@@]2(C)C[C@H]2O[C@]21C,H37Rv,,,MIC,,32 µg/mL
CO[C@H]1/C=C/O[C@@]2(C)Oc3c(C)c(O)c4c(O)c(c(/C=N/N5CCN(C)CC5)c(O)c4c3C2=O)NC(=O)/C(C)=C\C=C\[C@H](C)[C@H](O)[C@@H](C)[C@@H](O)[C@@H](C)[C@H](OC(C)=O)[C@@H]1C,H37Rv,,,MIC,,3 µg/mL
Nc1ccc(Cl)cc1C(=O)Nc1ccc(Cl)c(Cl)c1,My 331/88,,,MIC,,32 µM
O=C1NC(=O)C(O)(C2=C(O)CCC2=O)C(=O)N1,H37Rv,,BACTEC,MIC bound,,>12.5 µg/mL
O=C1CC(Nc2ccc(Oc3ccc(Cl)cc3)c(Cl)c2)C(=O)N1Cc1ccccc1,H37Rv,,,MIC,,100 µg/mL
CCCCCNC(=O)CCc1cnc(C2C3CC4CC(C3)CC2C4)[nH]1,H37Rv,,,MIC,,>6.25 µg/mL
CC(=O)NC[C@H]1CN(c2ccc(N3CCOCC3)c(F)c2)C(=O)O1,AZD5847-resistant,T460C Cys154Arg,,MIC,,16 µg/mL
c1ccc(-c2cc3ccc(N4CCNCC4)nc3nc2N2CCNCC2)cc1,H37Rv,,,inhibition,6.25 µg/mL,73%
O=C1CSC2(CCCCC2)N1NC(=O)C(O)(c1ccccc1)c1ccccc1,H37Rv,,,inhibition,6.25 µg/mL,1%
CC1=CC[C@@]2(C)[C@@H]([C@@H]1C)[C@H]1CCC3[C@@]4(C)CC[C@H](O)C(C)(C)[C@@H]4CC[C@@]3(C)[C@]1(C)C[C@@H]2O,H37Rv,,,MIC,,16 µg/mL
COc1ccc(NC(=S)Nc2ccc(OC)cc2)cc1,H37Ra,,,MIC,,1 µg/mL
O=C(O)C1C2OC3C(OC(=O)C31)C2Cl,H37Rv,,BACTEC,inhibition,12.5 µg/mL,19%
O=C1CC(Nc2ccc(Oc3ccc(Cl)cc3)c(Cl)c2)C(=O)N1c1ccc(Sc2ccc([N+](=O)[O-])cc2)cc1,H37Rv,,,MIC,,100 µg/mL
COC1=C(Br)[C@@H](O)[C@]2(C=C1Br)CC(C(=O)NCCCCNC(=O)C1=NO[C@]3(C=C(Br)C(OC)=C(Br)[C@@H]3O)C1)=NO2,H37Rv (isoniazid-resistant),,,MIC,,12.5 µg/mL
S=C1SCN(Cc2ccco2)CN1Cc1ccco1,H37Rv,,BACTEC,MIC bound,,>12.5 µg/mL
O=C(N/N=C/c1cn(-c2ccc(Cl)cc2)nn1)c1ccncc1,H37Rv,,resazurin,MIC,,0.62 µg/mL
CC(C)=CCC[C@H](C)[C@@H]1CC[C@]2(C)[C@H]3CCC4(OC4(C)C)[C@@H](CCCO)[C@]3(C)CC[C@@]12C,H37Rv,,,MIC,,4 µg/mL
Cc1ccc(N=Nc2c(C)nn(C(=S)S)c2C)cc1,H37Rv,,BACTEC,MIC bound,,>12.5 µg/mL
COc1c(N2CCNC(C)C2)c(F)cc2c(=O)c(C(=O)O)cn(C3CC3)c12,,,,MIC50,,0.12–1 µg/mL
Nc1cc2cc(-c3ccccc3)c(N3CCCCC3)nc2nc1N1CCCCC1,H37Rv,,,inhibition,6.25 µg/mL,71%
Cc1cc(C)[nH]n1.[Cl][Pd][Cl].c1ccc(P(c2ccccc2)c2ccccc2)cc1,H37Rv,,resazurin,MIC90,,>250 µg/mL
COC(=O)CNC(=O)c1cnc(C(C)(C)C)[nH]1,H37Rv,,,inhibition,6.25 µg/mL,12%
O=c1ccc2c(-c3ccccc3)cc(N3CCCCC3)nc2[nH]1,H37Rv,,,MIC,,>6.25 µg/mL
C[C@H]1[C@H](C)CC[C@]2(CO)CC[C@]3(C)C(=CC[C@@H]4[C@@]5(C)CC[C@H](O)C(C)(C)[C@@H]5CC[C@]43C)[C@H]12,H37Rv,,,MIC,,32 µg/mL
O=[N+]([O-])c1cn2c(n1)OC[C@@H](OCc1ccc(OC(F)(F)F)cc1)C2,UT30,,,MIC,,0.024 µg/mL
Nc1ccc2c(-c3ccccc3)cc(N3CCCCC3)nc2n1,H37Rv,,,MIC,,>6.25 µg/mL
COC(=O)CCc1cnc(C2CCCC2)[nH]1,H37Rv,,,inhibition,6.25 µg/mL,0%
Nc1ccc(Cl)cc1C(=O)Nc1ccc(Br)cc1,My 331/88,,,MIC,,31 µM
NNC(=O)c1ccncc1,H37Rv,,,MIC,,0.05 µg/mL
Cc1ccc(-n2nnc3ccccc3c2=O)cc1,My 331/88,,,MIC,,>500 µM
c1ccc(P(c2ccccc2)c2ccccc2)cc1,H37Rv,,resazurin,MIC90,,>250 µg/mL
N[C@@H]1CN(c2c(F)cc3c(=O)c(C(=O)O)cn([C@@H]4C[C@@H]4F)c3c2Cl)CC12CC2,25 strains,,,MIC50,,0.1 µg/mL
C=C(C)[C@@H]1CC[C@]2(C)CC[C@]3(C)[C@H](CC[C@@H]4[C@@]5(C)CC[C@@H](O)C(C)(C)[C@@H]5CC[C@]43C)[C@@H]12,H37Rv,,,MIC,,4 µg/mL
NNC(=O)c1cnc(C2CCCC2)[nH]1,H37Rv,,,inhibition,6.25 µg/mL,1%
CCN1CCN(c2ccc3c(-c4ccccc4)cc(N4CCN(CC)CC4)nc3n2)CC1,H37Rv,,,MIC,,>6.25 µg/mL
N=C(N)/C=C/C(=O)O,H37Rv,,BACTEC,MIC bound,,>12.5 µg/mL
O=C([C@@H](O)CO)N1CC=C(c2c(F)cc(N3C[C@H](COc4ccon4)OC3=O)cc2F)CC1,AZD5847-resistant 8.8,T460C Cys154Arg,,MIC,,16 µg/mL
c1ccc(-c2cc(N3CCOCC3)nc3nc(N4CCOCC4)ccc23)cc1,H37Rv,,,inhibition,6.25 µg/mL,0%
CC#N.CC#N.[Cl][Pd][Cl],H37Rv,,resazurin,MIC90,,481 µM
COc1ccc2c(-c3ccccc3)cc(N3CCOCC3)nc2n1,H37Rv,,,MIC,,>6.25 µg/mL
CCCSc1ccc(NC(=S)Nc2ccc(SCCC)cc2)cc1,H37Ra,,,MIC,,<0.1 µg/mL
C=C(C)[C@@H]1CC[C@]2(C)CCC3(C)[C@H](CC[C@@H]4[C@@]5(C)CC[C@H](O)C(C)(C)[C@@H]5CC[C@]43C)[C@@H]12,H37Rv,,,MIC,,>64 µg/mL
O=c1[nH][nH]c(=O)c2c1nc(SCCc1ccccc1)n2Cc1ccccc1,H37Rv,,BACTEC,inhibition,12.5 µg/mL,0%
O=[N+]([O-])c1ccc(C2=NOC(c3ccc(N4CCN(Cc5ccccc5)CC4)cc3)C2)o1,UT15,,,MIC,,0.0008 µg/mL
O=C1Cc2ccccc2CCc2ccsc21,H37Rv,,BACTEC,inhibition,12.5 µg/mL,0%
CC(C)=CCCC(C)[C@H]1CC[C@@]2(C)C3CCC4C(C)(C)[C@@H](O)CCC45CC35CC[C@]12C,H37Rv,,,MIC,,>64 µg/mL
CCN1CCN(c2cc(-c3ccccc3)c3ccc(OC)nc3n2)CC1,H37Rv,,,inhibition,6.25 µg/mL,72%
CC1CCCCC12SCC(=O)N2NC(=O)C(O)(c1ccccc1)c1ccccc1,H37Rv,,,inhibition,6.25 µg/mL,0%
O=C(O)c1cnc(C2CCCCC2)[nH]1,H37Rv,,,inhibition,6.25 µg/mL,0%
CCCCCCCC/C=C\CCCCCCCc1cc(O)cc(O)c1,H37Rv,,,MIC,,20.8 µg/mL
COc1ccc2c(c1)n([O-])c1ccccc1[n+]2=O,ETA-R,,,MIC,,0.8 µg/mL
CCCCOc1ccc(NC(=S)Nc2ccc(OCCCC)cc2)cc1,H37Ra,,,MIC,,0.1–0.5 µg/mL
NNC(=O)c1ccncc1,Isolate H,,,MIC,,0.031 µg/mL
O=C1CC(Nc2ccc(Oc3ccc(Cl)cc3)c(Cl)c2)C(=O)N1c1ccccc1,H37Rv,,,MIC,,>200 µg/mL
Cc1ccc(NC(=O)c2cc(Cl)ccc2N)cc1,My 331/88,,,MIC,,125 µM
Cc1c(F)c(N2CCNC(C)C2)cc2c1c(=O)c(C(=O)O)cn2C1CC1,,,,MIC50,,1 µg/mL
COC(=O)c1cc(=O)[nH]c2c1c(=O)n(C)c(=O)n2C,H37Rv,,resazurin,inhibition,6.25 µg/mL,-13%
O=C1CSC2(CCCC2)N1NC(=O)C(O)(c1ccccc1)c1ccccc1,H37Rv,,,inhibition,6.25 µg/mL,0%
C=C[C@](C)(Cl)[C@@H](Br)/C=C/[C@](C)(Cl)CBr,ATCC 35837 (ethambutol-resistant),,,MIC,,3.13 µg/mL
Oc1cc(O)c2c(c1)O[C@H](c1ccc(O)c(O)c1)[C@@H](O)C2,H37Rv,,,MIC,,150 µg/mL
O=C1C(=O)N(CCCCCN2CCN(c3ccnc4cc(Cl)ccc34)CC2)c2ccccc21,MC2 6230,,,MIC99,,43.29 µM
CC1COc2c(N3CCN(C)CC3)c(F)cc3c(=O)c(C(=O)O)cn1c23,Beijing,,broth dilution,MIC,,0.5 µg/mL
CC1COc2c(N3CCN(C)CC3)c(F)cc3c(=O)c(C(=O)O)cn1c23,H37RV (RIF-R),,,MIC,,0.63 µg/mL
CN(C)c1ccc(-c2nc3ccccc3s2)c(Cl)c1,H37Rv,,BACTEC,MIC bound,,>12.5 µg/mL
COc1cc(O)cc(CCCCC/C=C\CCCCCCCc2cc(O)c(C)c(O)c2)c1,H37Rv,,,MIC,,25.6 µg/mL
Nc1ccc2nc3ccc(=O)cc-3n(-c3ccccc3)c2c1,H37Rv,,BACTEC,MIC,,3.13 µg/mL
CC1=C(C(=O)O)N2C(=O)[C@@H](NC(=O)[C@H](N)c3ccccc3)[C@H]2SC1,MC2 6230,,,MIC99,,68.41 µM
CCCCCc1cc(OC)c(C)c(OC)c1,H37Rv,,,MIC,,≤2.5 µg/mL
CCC1=CC(=O)C(CC)=CC1=O,H37Rv,,BACTEC,inhibition,128 µg/mL,97%
CC(C)CCSc1ccc(NC(=S)Nc2ccc(SCCC(C)C)cc2)cc1,H37Ra,,,MIC,,2.5 µg/mL
O=S(=O)(O)c1cc(O)c2c(N=Nc3ccc(Nc4ccccc4)c4c(S(=O)(=O)O)cccc34)cc(S(=O)(=O)O)cc2c1,H37Rv,,BACTEC,inhibition,12.5 µg/mL,0%
CCC(C)c1ccc(NC(=O)c2cc(Cl)ccc2N)cc1,My 331/88,,,MIC,,16 µM
O=C1CC(Nc2ccc(Oc3ccc(Cl)cc3)c(Cl)c2)C(=O)N1c1ccc(Cl)cc1,H37Rv,,,MIC,,>200 µg/mL
CCN(CCO)CCCC(C)Nc1ccnc2cc(Cl)ccc12,H37Rv,,resazurin,MIC bound,,>6.25 µg/mL
C[C@@H]1CN(c2c(F)c(N)c3c(=O)c(C(=O)O)cn(C4CC4)c3c2F)C[C@H](C)N1,,,,MIC90,,0.25–0.5 µg/mL
CN1C(=O)N(Br)C(C)(C)C1=O,H37Rv,,BACTEC,MIC bound,,>12.5 µg/mL
O=C1C(=O)N(CC#CCN2CCN(c3ccnc4cc(Cl)ccc34)CC2)c2ccc(Cl)cc21,MC2 6230,,,MIC99,,136 µM
O=C1C(Nc2ccccc2)=CC(c2ccccc2)N1c1ccccc1,H37Rv,,BACTEC,inhibition,12.5 µg/mL,3%
CCCC1CCC2(CC1)SC(C)C(=O)N2NC(=O)C(O)(c1ccccc1)c1ccccc1,H37Rv,,,inhibition,6.25 µg/mL,64%
CC(=O)C(NC(=O)C(C)C(O)C(C)NC(=O)C(NC(=O)c1nc(C(CC(N)=O)NCC(N)C(N)=O)nc(N)c1C)C(OC1OC(CO)C(O)C(O)C1(C)OC1OC(CO)C(O)C(O)(C(N)=O)C1O)c1cnc[nH]1)C(=O)NCCC1=NC(c2nc(C(N)=O)cs2)CS1,RMP-R,,,MIC,,0.013 µg/mL
C=C(CCC=C(C)C)C1CC[C@]2(C)C1CC[C@@H]1[C@@]3(C)CC[C@H](O)C(C)(C)[C@@H]3CC[C@]12C,H37Rv,,,MIC,,32 µg/mL
COc1cc2c(c3c1CCC(C)(C)O3)Cc1c(cc(OC)c(OC)c1CCC(C)(C)O)O2,H37Rv,,BACTEC,inhibition,12.5 µg/mL,2%
O=C(NCc1ccc(N2CCN(Cc3ccccc3)CC2)cc1)c1ccc([N+](=O)[O-])o1,UT15,,,MIC,,0.012 µg/mL
CC(=O)Nc1ccc(C2OC(=O)C(O)=C2C(=O)C=C(C)C)cc1,H37Rv,,resazurin,MIC bound,,>6.25 µg/mL
CC(C)(C)c1ccc(NC(=S)Nc2ccc(C(C)(C)C)cc2)cc1,H37Ra,,,MIC,,>20 µg/mL
CCC/C=c1\[nH]c(=O)/c(=C/c2ccc(OC)cc2)[nH]c1=O,H37Rv,,BACTEC,MIC bound,,>12.5 µg/mL
CC1(C)CC[C@]2(C)CC=C3[C@]4(C)CCC5C(C)(C)[C@@H](O)CC[C@]5(C)C4CC[C@@]3(C)C2C1,H37Rv,,,MIC,,>64 µg/mL